Experimental data as given in publication PMC5034337 (Scientific Reports, 2016).

Experiment: Eight-day duplicate diet case study, 24 h urine of one volunteer (LC-MS/MS)

Structure (SMILES): CC1=CC2OC3C(OS(=O)(=O)O)CC(C)(C34CO4)C2(CO)C(O)C1=O (centres unmarked)
- D3S excretion rate (Average of days 3-6): 3.5%
- D3S excretion rate (Day 3, excreted DON-3-sulfate in μmol / DON intake in μmol * 100): 4.3%
- D3S excretion rate (Day 4, excreted DON-3-sulfate in μmol / DON intake in μmol * 100): 2.1%
- D3S excretion rate (Day 5, excreted DON-3-sulfate in μmol / DON intake in μmol * 100): 3.5%
- D3S excretion rate (Day 6, excreted DON-3-sulfate in μmol / DON intake in μmol * 100): 4.3%
